Anti-infective test results gathered from many reports (values: NIAID ChemDB through PubChem).

All rows: tests in culture; species: Herpes simplex virus 2; endpoint: EC50

ECn is the concentration giving n% inhibition of infection, replication or growth.

structure | strain or isolate | cells | method | value
O=c1[nH]c(=O)n([C@@H]2O[C@H](CO)[C@@H](O)[C@@H]2O)cc1/C=C/Cl | HG-52 | HELF | plaque count | 26.6 µg/mL
COc1ccc(-c2[nH]c3nc4c(ncn4COCCO)c(=O)n3c2C)cc1 | LYONS | HEL | cytopathic effect | 1.92 µg/mL
O=C(NCc1ccc(Cl)cc1)c1cn2c3c(cc(CN4CCOCC4)cc3c1=O)OC(c1cccnc1)C2 | L6010541 (WILD TYPE) | HFF | plaque count | 16.3 µM
OC[C@H]1O[C@@H](c2cc(F)c(F)cc2F)C[C@@H]1O | LYONS | E6SM | cytopathic effect | >400 µg/mL
Nc1nc(=O)n([C@H]2C[C@H](O)[C@@H](CO)O2)cc1/C=C/Br | G | Primary rabbit kidney cells | cytopathic effect | 7 µg/mL
Nc1nc2c(ncn2CCC(CO)CO)c(=O)[nH]1 | 6 isolates | MRC-5 | plaque count | 1.5 µg/mL
CCCCCCCCCCCCOCCCOP1(=O)CO[C@@H](Cn2ccc(N)nc2=O)CO1 | SR | HFF | plaque count | >1 µM
O=C(O)P(=O)(O)O | MS | MEF | plaque count | 32.8 µg/mL
Nc1nc2c(ncn2CC[C@H](O)CO)c(=O)[nH]1 | 91075 | BHK | plaque count | 70 µM
CCCCCCc1cn([C@@H]2OC3COP(=O)(O)OC3[C@H]2O)c(=O)nc1N | G | - | - | >400 µg/mL
N#Cc1cc([C@H]2C[C@H](O)[C@@H](CO)O2)c(F)cc1F | LYONS | E6SM | cytopathic effect | >400 µg/mL
Nc1nc(=O)n([C@@H]2O[C@H](CO)[C@@H](O)[C@@H]2F)cc1I | UW-268 | HELF | plaque count | 0.011 µg/mL
Nc1nc2c(ncn2C=C2CC2CO)c(=O)[nH]1 | - | HFF | cytopathic effect | 429 µM
Cc1cn([C@@H]2O[C@H](COP(=O)(O)O)[C@@H](O)[C@@H]2O)c(=O)[nH]c1=O | MS | HELF | cytopathic effect | 1 µg/mL
COC(=O)[C@H](C)NP(=O)(OC[C@H]1C/C1=C/n1cnc2c(=O)[nH]c(N)nc21)Oc1ccccc1 | - | HFF | plaque count | 39.2 µM
CCCCCCc1cn([C@@H]2O[C@H](COP(=O)(O)O)[C@@H](O)[C@H]2O)c(=O)nc1N | G | - | - | >400 µg/mL
Nc1nc2c(ncn2CC(CO)OCP(=O)(O)O)c(=O)[nH]1 | 186 | WI-38 | plaque count | 0.8 µM
O=c1[nH]c(=O)n([C@@H]2O[C@H](CO)[C@@H](O)[C@@H]2O)cc1/C=C/I | UW-268 | HELF | plaque count | 4.2 µg/mL
CCO/N=C/c1ccc(OCCC2CCN(c3ccc(Cl)nn3)CC2)cc1 | HGP | KB | virus yield | 0.0004 µM
Cc1c(-c2ccc(F)cc2)[nH]c2nc3c(ncn3COCCO)c(=O)n12 | 196 | HEL | cytopathic effect | 1.92 µg/mL
Nc1ncnc2c1ncn2[C@@H]1O[C@H](COP(=O)(O)O)[C@@H](O)[C@@H]1O | E-196 | MEF | plaque count | 29 µM
Nc1nc(NC2CC2)c2ncn(C=C3CC3CO)c2n1 | - | HFF | cytopathic effect | 73.4 µM
COc1cc(OC)c(NC(=S)Nc2ccc(NC=O)cc2Cl)cc1Cl | 186 | HFF | ELISA | 27 µg/mL
Nc1ccn(C[C@@H](CO)OCP(=O)(O)O)c(=O)n1 | 8713 (TK-) | MRC-5 | plaque count | 2.2 µM
Nc1nc2c(ncn2COCCO)c(=O)[nH]1 | MS | FS-71 | cytopathic effect | 0.31 µg/mL
CCc1cn([C@H]2C[C@H](O)[C@@H](CO)O2)c(=O)[nH]c1=O | Strain 196 | Primary rabbit kidney cells | cytopathic effect | 0.7 µg/mL
Nc1nc2c(ncn2C/C=C\CO)c(=O)[nH]1 | 91075 | BHK | plaque count | 26 µM
Nc1ccn(C[C@H]2COP(=O)(O)CO2)c(=O)n1 | MS | HFF | plaque count | 17.22 µM
OC[C@H]1O[C@@H](c2ccc(F)cc2F)C[C@@H]1O | LYONS | E6SM | cytopathic effect | >400 µg/mL
CC[C@H](C)[C@H](N)[C@H](O)n1nc(C)c2c(Cl)c3cc(OC)ccc3nc21 | - | WI-38 | plaque count | 7 µg/mL
CCCCCCCC/C=C\CCCCCCCOCCOP1(=O)CO[C@@H](Cn2ccc(N)nc2=O)CO1 | G | HFF | plaque count | 0.04 µM
Nc1ncnc2c1ncn2C[C@@H](CO)OCP(=O)(O)O | LYONS | ESM | cytopathic effect | 0.1 µg/mL
Nc1nc2c(ncn2COCCO)c(=O)[nH]1 | R-324 (acyclovir-resistant) | HFF | cytopathic effect | >50 µg/mL
CCCCCCCCCCCCCCCCCCOCCCOP1(=O)CO[C@@H](Cn2ccc(N)nc2=O)CO1 | G | HFF | plaque count | >1 µM
Cc1cn([C@@H]2O[C@H](CO)[C@@H](O)[C@@H]2F)c(=O)[nH]c1=O | MS | CCRF-HSB-2 | plaque count | 0.11 µM
Nc1nc2c(ncn2CCCC(CO)CO)c(=O)[nH]1 | 91075 | BHK | plaque count | 3 µM
COC(=O)[C@H](C)NP(=O)(OCC1C/C1=C/n1cnc2c(NC3CC3)nc(N)nc21)Oc1ccccc1 | - | HFF | plaque count | 0.8 µM
Nc1ccn(C[C@@H](CO)OCP(=O)(O)O)c(=O)n1 | Heeter | HFF | plaque count | 3 µg/mL
O=c1[nH]c(=O)n([C@@H]2O[C@H](CO)[C@@H](O)[C@@H]2F)cc1/C=C/Br | MS | CCRF-HSB-2 | plaque count | 24 µM
CCCCC(=O)OC[C@H]1O[C@@H](n2cnc3c(N)ncnc32)[C@@H](O)[C@@H]1O | Clinical isolate HEETER | MEF | plaque count | 20 µM
CCCCCCCC/C=C\CCCCCCCOCCCOP(=O)(O)CO[C@H](CO)Cn1ccc(N)nc1=O | G | HFF | plaque count | 0.09 µM
[O-][n+]1onc2ncnc(N3CC[N+]4(CC3)CC[N+]3(CCN(c5ncnc6no[n+]([O-])c56)CC3)CC4)c21 | P | GMK | plaque count | 10.2 µM
O=c1c2ncn(COCCO)c2nc2[nH]c(-c3ccc(F)cc3)cn12 | 196 | HEL | cytopathic effect | >16 µg/mL
Cc1cn([C@@H]2O[C@H](CO)[C@H]2CO)c(=O)[nH]c1=O | 12247 (TK altered) | HFF | plaque count | 81 µg/mL
O=c1c2ncn(COCCO)c2nc2[nH]c(-c3ccccc3)c(Cc3ccc(F)cc3)n12 | LYONS | HEL | cytopathic effect | >16 µg/mL
O=c1[nH]c(=O)n([C@H]2C[C@H](O)[C@@H](CO)O2)cc1/C=C/Br | UW-268 | HELF | plaque count | 15 µg/mL
Nc1ccn([C@@H]2O[C@H](CO)[C@@H](O)[C@@H]2O)c(=O)n1 | Strain 196 | Primary rabbit kidney cells | cytopathic effect | 0.04 µg/mL
C=C1[C@H](CO)[C@@H](O)C[C@@H]1n1cnc2c(=O)[nH]c(N)nc21 | - | WI-38 | plaque count | 6 µM
CCCCCCCCc1cn([C@@H]2O[C@H](COP(=O)(O)O)[C@@H](O)[C@H]2O)c(=O)nc1N | LYONS | - | - | >400 µg/mL
Nc1ccn(C[C@@H](CO)OCP(=O)(O)O)c(=O)n1 | SR | HFF | plaque count | 6.5 µM
OC[C@H]1O[C@H](c2cc(I)c(F)cc2F)C[C@@H]1O | 196 | E6SM | cytopathic effect | >400 µg/mL
CCCc1cn([C@@H]2O[C@H](COP(=O)(O)O)[C@@H](O)[C@H]2O)c(=O)nc1N | 196 | - | - | >400 µg/mL
O=c1[nH]c(=O)n([C@@H]2O[C@H](CO)[C@@H](O)[C@@H]2F)cc1I | MS | CCRF-HSB-2 | plaque count | 0.16 µM
Nc1nc2c(ncn2COCCO)c(=O)[nH]1 | 91075 | SIRC | plaque count | 0.2 µM
CCCCCc1cn([C@@H]2O[C@H](COP(=O)(O)O)[C@@H](O)[C@H]2O)c(=O)nc1N | G | - | - | >400 µg/mL
Cn1cc(C(=O)NCc2ccc(Cl)cc2)c(=O)c2cc(CN3CCOCC3)ccc21 | 12247 (ACV-resistant) | HFF | plaque count | 2.8 µM

8 of the rows above, restated:

structure	strain or isolate	cells	method	value
OC[C@H]1O[C@@H](c2ccc(F)cc2F)C[C@@H]1O	LYONS	E6SM	cytopathic effect	>400 µg/mL
CCCCCCCCc1cn([C@@H]2O[C@H](COP(=O)(O)O)[C@@H](O)[C@H]2O)c(=O)nc1N	LYONS	-	-	>400 µg/mL
CC[C@H](C)[C@H](N)[C@H](O)n1nc(C)c2c(Cl)c3cc(OC)ccc3nc21	-	WI-38	plaque count	7 µg/mL
Nc1nc2c(ncn2COCCO)c(=O)[nH]1	R-324 (acyclovir-resistant)	HFF	cytopathic effect	>50 µg/mL
Nc1ccn(C[C@H]2COP(=O)(O)CO2)c(=O)n1	MS	HFF	plaque count	17.22 µM
O=c1[nH]c(=O)n([C@H]2C[C@H](O)[C@@H](CO)O2)cc1/C=C/Br	UW-268	HELF	plaque count	15 µg/mL
O=c1[nH]c(=O)n([C@@H]2O[C@H](CO)[C@@H](O)[C@@H]2O)cc1/C=C/I	UW-268	HELF	plaque count	4.2 µg/mL
Nc1nc2c(ncn2C=C2CC2CO)c(=O)[nH]1	-	HFF	cytopathic effect	429 µM

Rows are shuffled and stem from different studies. An empty or dashed field is not shown.